Percent effect of library compounds

From ChEMBL document CHEMBL3988442, “University of Dundee, Small-Polar-MMV Screening Library” (2021).

Results are given as percent effect. How 0% and 100% were set is not recorded. Most values in the screen are low, and negative values occur. Many other results are left out here, so strong results are more common than in the screen.

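Growth of Mycobacterium tuberculosis over 4 days (cholesterol / DPPC medium with tyloxapol); the read-out is not stated. Tested at 500 µM. Direction is inferred from retests: higher values go with more growth inhibition. Size under these conditions: about 18,000 compounds, about 900 of them at 50% or above in at least one test.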

| # | structure | effect |
|---|---|---|
| 1 | `Cc1nc(C(=O)OCCn2cccn2)cs1` | 12.49 |
| 2 | `COC(=O)N(C)CC(=O)NC(CO)Cc1ccccc1` (stereo not shown) | -11.53 |
| 3 | `Cc1cc(C(=O)NC2CCC(=O)N(C)C2)on1` (stereo not shown) | 0.9079 |
| 4 | `CN(Cc1ccsc1)Cc1ccc(S(=O)(=O)N(C)C)o1` | 62.57 |
| 5 | `CC1Cc2ccccc2N(C(=O)c2csnn2)C1` (stereo not shown) | 35.12 |
| 6 | `Cc1cc(CNC(=O)N2CCSCC2)nc(C)n1` | -1.559 |
| 7 | `COCCNC(=O)c1cc2cc(C)ccc2n1C` | 61.8 |
| 8 | `CC(C)(C)NC(=O)CNC1CCCc2occc21` (stereo not shown) | 27.7 |
| 9 | `COC(=O)CSCC(=O)Nc1cc(F)cc(F)c1` | 53.44 |
| 10 | `NCCc1nc(-c2ccccn2)cs1` | 31.8 |
| 11 | `COCCNc1ccc(OC)c(OC)c1` | 30.31 |
| 12 | `COc1ccc(C(=O)CCN(C)C)cc1OC` | 19.77 |
| 13 | `COc1cccc(N2CCC(N)CC2)c1` | 29.31 |
| 14 | `CC1CN(C(=O)NCc2ccc(Cl)s2)CCS(=O)(=O)C1` (stereo not shown) | 5.3 |
| 15 | `CN(C)C(=O)Cn1c(C(F)(F)F)nc2ccccc21` | -5.554 |
| 16 | `Cc1ncc(CN(C)CC(O)COCc2ccco2)s1` (stereo not shown) | 52.81 |
| 17 | `CC(=O)Nc1ccc(C2=NN=C(NC(C)C)SC2)cc1` | 20.96 |
| 18 | `NS(=O)(=O)c1cnc2ccsc2c1` | 4.804 |
| 19 | `CC1CCCCN1C(=O)c1ccc(CN)cc1` (stereo not shown) | 5.197 |
| 20 | `CCC(CO)NC(=O)C1(c2ccc(F)cc2F)CCC1` (stereo not shown) | 52.52 |
| 21 | `COCC(=O)Nc1cnc(-c2cccnc2)nc1` | 5.43 |
| 22 | `COC(=O)c1ccccc1NC(=O)N1CC[C@@H](O)C1` | -0.02539 |
| 23 | `CCc1noc(C)c1C(=O)N1CCCN(C)CC1` | 4.531 |
| 24 | `CCC(=O)OC(C)C(=O)Nc1ccc2c(c1)OCCO2` (stereo not shown) | 14.38 |
| 25 | `CS(=O)(=O)NCc1ccnc(N2CCCCCC2)c1` | 8.037 |
| 26 | `COCc1csc(CO)c1` | 3.589 |
| 27 | `Cc1ccc2[nH]cc(CCN)c2c1` | 42.12 |
| 28 | `CC1CN(c2ccnc3ccc(Cl)cc23)CCS1(=O)=O` (stereo not shown) | -2.968 |
| 29 | `c1ccc(CN2CCCN(c3ccccn3)CC2)nc1` | 63.81 |
| 30 | `O=C(CSc1ccncc1)NCCn1cccc1` | 15.84 |
| 31 | `CNC(=O)NCCOc1ccc2c(c1)OCO2` | -3.768 |
| 32 | `CCn1nnc(NCc2ccccc2)n1` | 77.76 |
| 33 | `CS(=O)(=O)N1CCC(NCCSc2cnn[nH]2)CC1` | 61.06 |
| 34 | `CNCCN1CCN(C(=O)OC(C)(C)C)CC1` | -8.112 |
| 35 | `O=C1COC[C@H]2CNCC[C@H]2N1Cc1ccccc1` | 21.96 |
| 36 | `CN(C)C(=O)c1c[nH]nc1C1CCCNC1` (stereo not shown) | -5.219 |
| 37 | `NCc1cccc(F)c1OC(F)F` | -9.776 |
| 38 | `CCC(=O)NCCNc1ccc2ccccc2n1` | 11.9 |
| 39 | `N#CCCN(CC1CC1)C(=O)c1cc(I)c[nH]1` | -4.97 |
| 40 | `O=C1NC(=O)[C@@H]2CNC[C@H]12` | -6.128 |
| 41 | `CC(O)CN(C)c1cc(N2CCCCC2)ncn1` (stereo not shown) | 12.47 |
| 42 | `OC1CCCN(Cc2nc3ccccc3o2)C1` (stereo not shown) | -16.02 |
| 43 | `Cc1cncc(CN2CCCC(CNS(N)(=O)=O)C2)c1` (stereo not shown) | 1.779 |
| 44 | `CC(=O)NC(c1cnc2ccccc2c1)[C@H]1C[C@@H](O)C1` (stereo partly shown) | -10.73 |
| 45 | `CC(C)c1ccc(C(N)CNS(C)(=O)=O)cc1` (stereo not shown) | 60.17 |
| 46 | `O=C1CC(c2ccccc2Cl)NN1` (stereo not shown) | 12.56 |
| 47 | `CC1CN(c2cccc3cnccc23)CCN1` (stereo not shown) | 28.85 |
| 48 | `COc1ccc(OCCSc2n[nH]c(N)n2)cc1` | 68.29 |
| 49 | `FC(F)Oc1ccc(C2CNCCO2)cc1` (stereo not shown) | 22.33 |
| 50 | `NCCCOCC1CCOC1` (stereo not shown) | -16.27 |
| 51 | `CC(C)CC(O)C(=O)N1CCN(c2cccnc2)CC1` (stereo not shown) | 32.45 |
| 52 | `COc1cc(C(=O)NC(C)(C)CC(N)=O)sc1Br` | -3.771 |
| 53 | `CN(C)C(CNC(=O)c1cnn(C)c1)c1ccsc1` (stereo not shown) | 12.14 |
| 54 | `O=C(c1ccccn1)N1CCN(C(=O)C2CC2)CC1` | 1.571 |
| 55 | `CC(=O)c1cc(CN2CC[C@](C)(O)[C@@H](O)C2)n(C)c1` | 5.675 |
| 56 | `CCNC(=O)[C@H]1Cc2ccccc2CN1` | 18.69 |
| 57 | `CC(C)Oc1cccc(C(=O)NC2CCN(C)CC2)c1` | 8.152 |
| 58 | `CCNC(=O)CNc1ccc(Br)cc1` | 73.91 |
| 59 | `Cc1ccc(C(=O)NCc2nnnn2C2CC2)c(Br)c1` | -10.42 |
| 60 | `Cn1cccc1C(=O)Nc1ccc(C(N)=O)cc1` | 19.78 |
| 61 | `COc1cc(C(C)=O)ccc1OCCCN(C)C` | 20.76 |
| 62 | `C=Cc1nnnn1-c1ccccc1` | 14.7 |

For reference, 6 entries once more:

{"structure": "CC1CN(C(=O)NCc2ccc(Cl)s2)CCS(=O)(=O)C1", "stereo": "stereo not shown", "effect": 5.3}
{"structure": "COCCNc1ccc(OC)c(OC)c1", "effect": 30.31}
{"structure": "O=C(CSc1ccncc1)NCCn1cccc1", "effect": 15.84}
{"structure": "N#CCCN(CC1CC1)C(=O)c1cc(I)c[nH]1", "effect": -4.97}
{"structure": "CN(C)C(=O)c1c[nH]nc1C1CCCNC1", "stereo": "stereo not shown", "effect": -5.219}
{"structure": "CC1CCCCN1C(=O)c1ccc(CN)cc1", "stereo": "stereo not shown", "effect": 5.197}